Experimental data taken from US9771361B2, “Inhibitors of influenza viruses replication” (priority 2013, dated 2017).
“And” between values parts separate entries of the source, which are not always exact repeats. Equal values may be shown once. The amount applied is not stated for every result.

System: influenza A/Wisconsin/67/2005 (H3N2) challenge strain virus
Design: species or system humans
Conditions: human, in vivo

Question: Which “Serology, Sero-conversion n/N” value does the source give for `O=C(O)[C@H]1C2CCC(CC2)C1Nc1nc(-c2c[nH]c3ncc(F)cc23)ncc1F` (stereo partly shown) [Compound (1)] here?
Answer: 11/16 and 9/19 and 13/19 and 12/18 and 45/72
